Results published in patent EP1367044B1, “Calixarene-derivatives having anti-viral activity” (Aids Care Pharma Limited, priority 2002, dated 2003).
Read-outs that look alike come from different tables or passages of the source.

Key:
wild-type HIV-1(111a) = conditions: CEM cells, 4 days incubation at 37°C, syncytium formation
gp120/CD4 binding = gp120/CD4 binding (UniProt P01730+P03375); experiment: Test 1: inhibition of gp120/CD4 binding, recombinant proteins in an immunoassay format; conditions: for activity compared with AC-1 (1151c): comparison in words, results from both tests were comparable; for EC50: read-out: Test 1 EC50, concentration which reduces gp120 interaction with CD4 by 50%
[1] = tested form: K salt (octapotassium)
[2] = tested form: K salt (tetrapotassium)

Structure (SMILES)	Test 2 EC50 (wild-type HIV-1(111a); [1]) [mg/L]	activity compared with AC-1 (1151c) (gp120/CD4 binding; [1])	EC50 (gp120/CD4 binding; [1]) [µM]	Test 2 EC50 (wild-type HIV-1(111a); [2]) [mg/L]	activity compared with AC-1 (1151c) (gp120/CD4 binding; [2])	EC50 (gp120/CD4 binding; [2]) [µM]
O=C(O)COc1cc(OCC(=O)O)c2cc1C(c1ccc(F)cc1)c1cc(c(OCC(=O)O)cc1OCC(=O)O)C(c1ccc(F)cc1)c1cc(c(OCC(=O)O)cc1OCC(=O)O)C(c1ccc(F)cc1)c1cc(c(OCC(=O)O)cc1OCC(=O)O)C2c1ccc(F)cc1 (stereo not drawn)	≥20	much less active	75	–	–	–
O=C(O)COc1c(O)c2cc(c1O)C(c1ccc(F)cc1)c1cc(c(O)c(OCC(=O)O)c1O)C(c1ccc(F)cc1)c1cc(c(O)c(OCC(=O)O)c1O)C(c1ccc(F)cc1)c1cc(c(O)c(OCC(=O)O)c1O)C2c1ccc(F)cc1 (stereo not drawn)	–	–	–	10	slightly less active	5
